Measurements reported in patent US20240301038A1.

Target: SARS-CoV-2 native Spike (S) trimer (Acro Biosystems) (SARS-CoV-2) (UniProt P0DTC2)
Test: ELISA on spike trimer

AB-009649 (antibody)
OD (450 nm): 0.155 OD (450 nm)
